Results of unrelated studies side by side (data: NIAID ChemDB).

All rows: growth or infection tests; species: Human cytomegalovirus; read-out: EC50

An empty or dashed field is not shown. ECn: concentration that inhibits the pathogen or its effect by n%. Lines come from different laboratories, so protocols vary.

Cc1cc(C)cc(Cn2c(=O)cc(Cl)n(CC#N)c2=O)c1 ; strain: AD169 ; value: >66 µM
CC/C=C\Cn1c(=O)sc2c(=O)[nH]c(N)nc21 ; strain: TOWNE ; read by: plaque count ; value: 0.56 µM
COc1cccc(N2CCN(C3=Nc4c(F)cccc4[C@H](CC(=O)O)N3c3cc(C(F)(F)F)ccc3OC)CC2)c1 ; strain: Clinical isolate 14 ; read by: plaque count ; value: 0.0014 µM
CN(C)c1cccc2c(S(=O)(=O)Nc3ccc(NC(=O)C(C)(C)CO)cc3)cccc12 ; strain: AD169 ; read by: plaque count ; value: 0.52 µM
[N-]=[N+]=N[C@@H]1C[C@@H](CO)S[C@H]1n1cnc2c(Cl)ncnc21 ; value: <100 µg/mL
O=C(NCc1ccc(Cl)cc1)c1c[nH]c2ccc(CCCO)cc2c1=O ; strain: DAVIS ; read by: plaque count ; value: 0.3 µM
[N-]=[N+]=N[C@H]1C[C@H](CO)S[C@H]1n1cnc2c(Cl)ncnc21 ; value: <100 µg/mL
O=C(NCc1ccc(Cl)cc1)c1c[nH]c2c(F)cccc2c1=O ; strain: AD169 ; read by: plaque count ; value: 8.6 µM
O=C(NCc1ccc(Cl)cc1)c1c[nH]c2ccc(C#CCO)cc2c1=O ; strain: DAVIS ; read by: plaque count ; value: 1 µM
[N-]=[N+]=N[C@H]1C[C@@H](CO)S[C@@H]1n1cnc2c(N)ncnc21 ; value: >100 µg/mL
Cc1nc(NC2CCc3c(F)cccc32)nc(-n2ccnc2)c1[N+](=O)[O-] ; value: 0.125 µM
Nc1nc2c(ncn2COC(CO)CO)c(=O)[nH]1 ; strain: VR5120 (ganciclovir-resistant) ; read by: plaque count ; value: 25 µM
Cc1cc(C)cc(Cn2c(=O)ccn(Cc3ccc(Cl)cc3)c2=O)c1 ; strain: AD169 ; value: >56 µM
[N-]=[N+]=N[C@H]1C[C@H](CO)S[C@@H]1n1ccc(N)nc1=O ; value: <100 µg/mL
Cc1nc(N2CCCC[C@H]2C)nc(-n2ccnc2)c1[N+](=O)[O-] ; value: 0.35 µM
OC[C@H]1O[C@@H](n2c(Cl)nc3cc(Cl)c(Cl)cc32)[C@H](O)[C@@H]1O ; strain: TOWNE ; read by: virus yield ; value: <1.1 µM
CN(C)c1cccc2c(S(=O)(=O)Nc3ccc(NC(=O)C(C)(C)CO)cc3)cccc12 ; strain: V1 (ganciclovir- foscarnet-resistant) ; read by: plaque count ; value: 0.15 µM
Cc1nc(NC2Cc3c(F)ccc(F)c3C2)nc(-n2ccnc2)c1[N+](=O)[O-] ; value: 0.15 µM
CNc1ncnc2c1ncn2[C@@H]1S[C@@H](CO)C[C@@H]1N=[N+]=[N-] ; value: <100 µg/mL
CCOC(=O)Cn1ccc(=O)n(Cc2cc(C)cc(C)c2)c1=O ; strain: AD169 ; value: >160 µM
Cc1nc(NC2Cc3ccccc3C2)nc(-n2ccnc2)c1[N+](=O)[O-] ; value: 2 µM
Nc1nc2c(ncn2[C@@H]2C=C[C@H](CO)[C@@H](O)C2)c(=O)[nH]1 ; strain: LY9990 ; value: 0.38 µg/mL
Cc1ccccc1Cn1c(=O)ccn(CC#N)c1=O ; strain: AD169 ; value: 78 µM

Repeating the final 3 entries:

structure	strain	read by	value
Cc1nc(NC2Cc3ccccc3C2)nc(-n2ccnc2)c1[N+](=O)[O-]	-	-	2 µM
Nc1nc2c(ncn2[C@@H]2C=C[C@H](CO)[C@@H](O)C2)c(=O)[nH]1	LY9990	-	0.38 µg/mL
Cc1ccccc1Cn1c(=O)ccn(CC#N)c1=O	AD169	-	78 µM